Compound potency records, mixed from different reports. Data source: NIAID ChemDB in PubChem.

Shared fields: enzyme or target tests; organism: HIV-1; protein: Integrase

An empty or dashed field is not shown. Lines come from different laboratories, so protocols vary. ICn: concentration for n% inhibition. Two numbers with a dash give a range or band. Fold resistance has wild type as its base. Percent inhibition refers to the dose given; in toxicity tests it is the harm to the cells.

SMILES	strain or isolate	changes	method	conditions	read-out	tested at	result
Cc1cc2c(cc1Cl)SC(C(=O)c1ccc(Br)cc1)=NS2(=O)=O		INTG-C65S	strand transfer		fold resistance		2.17
O=C(/C=C/c1ccc(O)c(O)c1)OCCc1ccccc1N=C=S		C65S	3′ processing		fold resistance		2.33
CCOC(=O)c1c(C)nc(-c2coc3cc(OCc4cccc(F)c4)ccc3c2=O)n1O			3′ processing / radiometric		IC20		50 µM
CN(C)CC(=O)N1CCn2c(nc(C(=O)NCc3ccc(F)cc3)c(O)c2=O)C1(C)C			ELISA		IC50		<10 µM
Cc1cc(Cl)cc2c1S(=O)(=O)N=C(C(=O)c1ccc(Cl)cc1)S2		INTG-C65S	3′ processing		fold resistance		2.22
CC(C)(C)CC(=O)Nc1cn2c(c(O)c1=O)C(=O)N(Cc1ccc(F)c(Cl)c1)CC2			ELISA		IC50		0.01–0.1 µM
CN(C)CCCC12CCC(NC(=O)C(=O)N(C)C)(CC1)c1nc(C(=O)NCc3cccc(Cl)c3F)c(O)c(=O)n1C2			radiometric		Ki		0.000008 µM
Cc1cc(CNC(=O)c2nc3n(c(=O)c2O)CC2(F)CCC3(NC(=O)C(=O)N(C)CC(C)C)CC2)ccc1F	NL4-3		binding	pseudotyped	Ki		0.0000021 µM
COC(=O)c1cc(O)c(O)c(O)c1			3′ processing		inhibition	1000 µM	73%
O=C(C1=NS(=O)(=O)c2ccc(Cl)cc2S1)c1ccc2ccccc2c1		INTG-C65S	3′ processing		fold resistance		8.13
CC1(C)CC(=O)c2c(nc(-c3coc4cc(OCc5ccccc5F)ccc4c3=O)n2O)C1			3′ processing / radiometric		IC20		180 µM
O=C(/C=C/c1ccc(O)c(O)c1)OCCc1ccc(NC(=S)SCCO)cc1		C65S	3′ processing		fold resistance		2.33
Cc1cc(Cl)cc2c1S(=O)(=O)N=C(C(=O)c1ccc3ccccc3c1)S2		INTG-C65S	strand transfer		fold resistance		2.85
COC(=O)N1CCC2(CC1)OCCCn1c2nc(C(=O)NCc2ccc(F)cc2)c(O)c1=O			binding / radiometric		Ki		0.001–0.003 µM
O=C(NC(c1ccccc1)c1ccccc1)c1cn2ccn(Cc3cccc(Cl)c3)c(=O)c2c(O)c1=O			ELISA		IC50		0.01–0.1 µM
CCOC(=O)C(=O)N1CCC2(C1)OCCn1c2nc(C(=O)NCc2ccc(F)cc2)c(O)c1=O			binding / radiometric		Ki		0.001–0.003 µM
Cc1cc(CNC(=O)c2nc3n(c(=O)c2O)CC2(Cn4ccn(C)c4=S)CCC3(NC(=O)C(=O)N(C)C)CC2)ccc1F			radiometric		Ki		0.0000022 µM
O=C(C1=NS(=O)(=O)c2ccc(Cl)cc2S1)c1ccc(Cl)cc1		INTG-C65S	3′ processing		fold resistance		1
CN(C)C(=O)C(=O)N(C)C12CCC(CO)(CC1)Cn1c2nc(C(=O)NCc2ccc(F)cc2)c(O)c1=O	NL4-3		binding	pseudotyped	Ki		0.0000028 µM
CC(C)C(=O)c1cn2c(c(O)c1=O)C(=O)N(Cc1ccc(F)cc1)CC2			ELISA		IC50		0.01–0.1 µM
Cc1cccc(CNC(=O)c2nc3n(c(=O)c2O)CC2(F)CCC3(NC(=O)C(=O)C(C)C)CC2)c1	NL4-3		binding	pseudotyped	Ki		0.000003 µM
CN(C)C(=O)C(=O)NC12CCC(N3CCOCC3)(CC1)Cn1c2nc(C(=O)NCc2ccc(F)cc2)c(O)c1=O			radiometric		Ki		0.000004 µM
O=C(/C=C/c1ccc(O)c(O)c1)Oc1ccc2cccc(N=C=S)c2c1		C56S	3′ processing		fold resistance		11
CN(C)CCCNC(=O)c1ccc2nc(-c3ccc4nc(-c5ccc(OCCOCCOCCOc6ccc(-c7nc8ccc(-c9nc%10ccc(C(=O)NCCCN(C)C)cc%10[nH]9)cc8[nH]7)cc6)cc5)[nH]c4c3)[nH]c2c1			3′ processing		Ki		4.7 µM
O=c1c(Sc2ccccc2)cn2ccn(Cc3cccc(Cl)c3)c(=O)c2c1O			ELISA		IC50		0.01–0.1 µM
Cc1cc(CNC(=O)c2nc3n(c(=O)c2O)CC2(N(C)C)CCC3(N(C)C(=O)C(=O)N(C)C)CC2)ccc1F			radiometric		Ki		0.000007 µM
CN(CC1c2nc(C(=O)NCc3ccc(F)cc3)c(O)c(=O)n2CCN1C)C(=O)c1ccccn1			ELISA		IC50		<10 µM
O=C1c2c(O)c(=O)c(-c3cnccn3)cn2CCN1Cc1cccc(Cl)c1			ELISA		IC50		0.01–0.1 µM
Cn1ccc(CN2CCn3c(nc(C(=O)NCc4ccc(F)cc4)c(O)c3=O)C2(C)C)n1			ELISA		IC50		<10 µM
CN(C)S(=O)(=O)N1CCC2(CC1)OCCCn1c2nc(C(=O)NCc2ccc(F)cc2)c(O)c1=O			binding / radiometric		Ki		0.001–0.003 µM
Cc1cc(CNC(=O)c2nc3n(c(=O)c2O)CC2(F)CCC3(NC(=O)c3cccn(C)c3=O)CC2)ccc1F			radiometric		Ki		0.0000064 µM
O=C(/C=C/c1ccc(O)c(O)c1)Oc1cccc2c(N=C=S)cccc12		C65S	3′ processing		fold resistance		2
Cc1ncnn1-c1cc(F)ccc1CNC(=O)c1nc2n(c(=O)c1O)CCCOC21CCN(S(=O)(=O)N(C)C)CC1			binding / radiometric		Ki		0.003–0.05 µM

3 of the rows above, restated:

SMILES	strain or isolate	changes	method	conditions	read-out	tested at	result
CN(C)C(=O)C(=O)N(C)C12CCC(CO)(CC1)Cn1c2nc(C(=O)NCc2ccc(F)cc2)c(O)c1=O	NL4-3		binding	pseudotyped	Ki		0.0000028 µM
Cc1cc(CNC(=O)c2nc3n(c(=O)c2O)CC2(Cn4ccn(C)c4=S)CCC3(NC(=O)C(=O)N(C)C)CC2)ccc1F			radiometric		Ki		0.0000022 µM
CC(C)(C)CC(=O)Nc1cn2c(c(O)c1=O)C(=O)N(Cc1ccc(F)c(Cl)c1)CC2			ELISA		IC50		0.01–0.1 µM